A mixed list of measured activities; the numbers were collected in NIAID ChemDB.

Shared fields: growth or infection tests; species: HIV-1

Neighbouring rows are from separate reports. ECn is the concentration giving n% inhibition of infection, replication or growth. An empty or dashed field is not shown.

structure	method	cells	strain	conditions	endpoint	result
Cc1cn([C@H]2C=C[C@@H](OCP(=O)(O)O)O2)c(=O)[nH]c1=O	-	MT-4	-	-	EC50	1.3 µM
CC(C)C1=C2[C@H]3CC[C@@H]4[C@@]5(C)CC[C@H](OC(=O)[C@H]6C[C@@H](C(=O)O)C6(C)C)C(C)(C)[C@@H]5CC[C@@]4(C)[C@]3(C)CC[C@@]2([C@@H](O)CNCc2cnn3cccnc23)CC1=O	p24 / ELISA	MT-2	92HT599	-	EC50	<1 µM
N[C@@H](Cn1ccc(=O)c(O)c1)C(=O)O	p24	H9	-	-	EC50	~120 µM
c1ccc(COC[C@@H]2CC[C@H](COc3ncnc4nc[nH]c34)O2)cc1	syncytia	CEM	IIIB	-	EC50	>2 µM
O=C1/C(=N\n2c(-c3ccncc3)n[nH]c2=S)c2ccccc2N1CN1CCCCC1	cytopathic effect / MTT	MT-4	IIIB	-	EC50	>10 µM
COc1ccc(/C=C(\C#N)Sc2ccccc2O)cc1	syncytia	CEM + CEM-SS	IIIB	-	EC50	>20 µg/mL
O=C1/C(=N\n2c(-c3ccncc3)n[nH]c2=S)c2ccccc2N1CN1CCOCC1	cytopathic effect / MTT	MT-4	IIIB	-	EC50	>14 µM
OC[C@@H]1CC[C@H](COc2ncnc3nc[nH]c23)O1	syncytia	CEM	IIIB	-	EC50	>250 µM
COC(=O)[C@H](Cc1ccccc1)NP(=O)(OCCC#N)OC[C@H]1O[C@@H](n2cc(C)c(=O)[nH]c2=O)C[C@@H]1N=[N+]=[N-]	RT activity	PBMC	LAV	-	EC50	>1 µM
C[C@@H]1O[C@H](CO)O[C@@H]1n1cnc2c(N)ncnc21	p24	MT-4	-	-	EC95	>10 µM
CN1CN([C@H]2C[C@H](O)[C@@H](CO)O2)C(=O)N=C1N	-	MT-2	LAI	-	EC50	10 µM
CC(=O)OC1[C@@]2(OC(C)=O)CC3=C([C@H](OC(C)=O)C(C)(C)C3=O)[C@]1(C)[C@H](OC(C)=O)[C@@]1(O)C[C@H](C)[C@H](OC(=O)c3ccccc3)[C@@H]1[C@H]2OC(C)=O	cytopathic effect / MTT	MT-4	IIIB	-	EC50	>100 µg/mL
C[C@@H]1O[C@@H](CO)O[C@H]1n1cnc2c(=O)[nH]c(N)nc21	p24	MT-4	-	-	EC95	>10 µM
Nc1nc(=O)n([C@@H]2CC[C@H](CO)O2)cc1F	MTT	MT-4	RF	-	EC50	1.31 µM
COc1ccc(S(=O)(=O)N(CC(C)C)C[C@@H](O)[C@H](Cc2ccccc2)NC(=O)OCO[C@H]2C[C@H]3OC[C@@]4(CNC(=O)O4)[C@H]3C2)cc1	MTT	MT-2	LAI	-	EC50	0.021 µM
O=C(/C=C/C(F)(F)F)NCCCCN1CCCC2=C[C@@H]3C[C@@H](CN4CCCC[C@H]34)[C@@H]21	luciferase	MT-4	NL4-3	-	EC50	2.55 µM
Cc1cc(CS(=O)(=O)c2cccc[n+]2[O-])c(C)cc1CS(O)(O)c1ccc[n+]([O-])c1	syncytia	CEM + CEM-SS	IIIB	-	EC50	10 µg/mL
Nc1nc2c(ncn2[C@H]2C=C[C@@H](CO)C2)c(=O)[nH]1	RT activity	H9	IIIB	-	EC50	0.8 µM
Cc1cn([C@H]2C=C[C@@H](CO)O2)c(=O)[nH]c1=O	-	MT-4	-	-	EC50	1.2 µM
CC(C)C1=C2[C@H]3CC[C@@H]4[C@@]5(C)CC[C@H](OC(=O)[C@H]6C[C@@H](C(=O)O)C6(C)C)C(C)(C)[C@@H]5CC[C@@]4(C)[C@]3(C)CC[C@@]2([C@@H](O)CNC(=O)C(C)(C)NC(=O)c2ccc(CN3CCOCC3)cc2)CC1=O	p24 / ELISA	MT-2	92HT599	-	EC50	<1 µM
CNc1nc2ccc(S(=O)(=O)N(CC(C)C)C[C@@H](O)[C@H](Cc3ccccc3)NC(=O)O[C@H]3CCOC3)cc2s1	cytopathic effect / MTT	MT-4	LAI	-	EC50	0.001 µM
C[C@@H]1O[C@H](CO)O[C@H]1n1cnc2c(=O)[nH]c(N)nc21	p24	MT-4	-	-	EC95	>10 µM
Nc1ccn([C@@H]2CS[C@H](CO)O2)c(=O)n1	p24	H9	-	-	EC50	0.1 µM
Nc1nc(=O)n([C@H]2CC[C@@H](CO)O2)cc1F	syncytia	C8166	RF	-	EC50	0.022 µM
O=C1/C(=N\n2c(-c3ccncc3)n[nH]c2=S)c2cc(Br)ccc2N1CN1CCOCC1	cytopathic effect / MTT	MT-4	IIIB	-	EC50	>11 µM
Nc1ccn([C@H]2CC[C@@H](CO)O2)c(=O)n1	MTT	MT-4	RF	-	EC50	0.189 µM
O=S(=O)(Cc1c2ccccc2cc2ccccc12)c1cccc[n+]1[O-]	syncytia	CEM + CEM-SS	IIIB	-	EC50	>8 µg/mL
Nc1cc(OC[C@H]2CC[C@@H](COCc3ccccc3)O2)ncn1	syncytia	CEM	IIIB	-	EC50	>50 µM
COc1cccc2c1c(=O)c1ccccc1n2C	p24 / ELISA	OM-10.1	IIIB	-	EC50	8.8 µg/mL
Cc1ccc(C)c(C(C)S(=O)(=O)c2cccc[n+]2[O-])c1	syncytia	CEM + CEM-SS	IIIB	-	EC50	9.5 µg/mL
CC(C)C1=C2[C@H]3CC[C@@H]4[C@@]5(C)CC[C@H](OC(=O)[C@H]6C[C@@H](C(=O)O)C6(C)C)C(C)(C)[C@@H]5CC[C@@]4(C)[C@]3(C)CC[C@@]2(CCN(CCN(C)C)Cc2ccccc2Cl)CC1=O	p24 / ELISA	MT-2	92HT599	-	EC50	<1 µM
COC1=CC(=O)c2c(O)c(C)c(CC(C)=O)c(O)c2C1=O	luciferase	SupT1	-	pseudotyped	EC50	1.6 µg/mL
COc1ccc(S(=O)(=O)N(CC(C)C)C[C@@H](O)[C@H](Cc2ccccc2)NC(=O)OCO[C@H]2C[C@H]3OCC4(CNC(=O)O4)[C@H]3C2)cc1	MTT	MT-2	LAI	-	EC50	0.093 µM
COC(=O)[C@H](CCCN=C(N)N)NC(=O)CCNC(=O)CN(CCNC(=O)CN(CCNC(=O)OCc1ccccc1)C(=O)Cn1cnc2c(N)ncnc21)C(=O)Cn1cnc2c(=O)[nH]c(N)nc21	cytopathic effect / MTT	PBMC/IIIB + PBMC	-	-	EC50	140 µM
Cn1c2ccccc2c(=O)c2c(O)cccc21	MTT	MT-4	IIIB	-	EC50	>15 µg/mL
Cc1c(O)cccc1C(=O)N[C@@H](Cc1ccccc1)[C@H](O)CN(CC(C)C)S(=O)(=O)c1ccc2nc(N)sc2c1	cytopathic effect / MTT	MT-4	LAI	-	EC50	0.005 µM
NC(N)=NCCC[C@H](NC(=O)CCNC(=O)CN(CCNC(=O)CN(CCNC(=O)OCc1ccccc1)C(=O)Cn1cnc2c(=O)[nH]c(N)nc21)C(=O)Cn1cnc2c(N)ncnc21)C(=O)O	cytopathic effect / MTT	PBMC/IIIB + PBMC	-	-	EC50	3.5 µM
COC(=O)[C@H](Cc1c[nH]c2ccccc12)NP(=O)(OC)OC[C@H]1O[C@@H](n2cc(C)c(=O)[nH]c2=O)C[C@@H]1N=[N+]=[N-]	RT activity	PBMC	LAV	-	EC50	0.3 µM
CNc1nc2ccc(S(=O)(=O)N(CC(C)C)C[C@@H](O)[C@H](Cc3ccccc3)NC(=O)OC3COC4OCCC34)cc2s1	cytopathic effect / MTT	MT-4	LAI	-	EC50	0.0005 µM
COC(=O)[C@H](CCCN=C(N)N)NC(=O)CCCCCNC(=O)CN(CCNC(=O)CN(CCNC(=O)OCc1ccccc1)C(=O)Cn1cnc2c(=O)[nH]c(N)nc21)C(=O)Cn1cnc2c(N)ncnc21	cytopathic effect / MTT	PBMC/IIIB + PBMC	-	-	EC50	20 µM
Cc1ccc([C@H]2c3ccccc3S(=O)(=O)N2C)cc1	cytopathic effect / XTT	CEM + CEM-SS	RF	-	EC50	1.53 µM
O=C1Nc2ccccc2/C1=N/n1c(-c2ccncc2)n[nH]c1=S	cytopathic effect / MTT	MT-4	IIIB	-	EC50	>11 µM
CC(=O)OCC(=O)O[C@@H]1[C@H]2[C@@H](OC(=O)c3ccccc3)[C@@H](C)C[C@]2(O)[C@H](OC(C)=O)[C@]2(C)C(OC(C)=O)[C@@]1(OC(C)=O)C[C@H]1C(=O)C(C)(C)C[C@@H]12	cytopathic effect / MTT	MT-4	IIIB	-	EC50	>100 µg/mL
Nc1cc(OC[C@H]2CC[C@@H](CO)O2)nc(N)n1	syncytia	CEM	IIIB	-	EC50	>250 µM
CC(C)CN(C[C@@H](O)[C@H](Cc1ccccc1)NC(=O)OC1COC2OCCC12)S(=O)(=O)c1ccc2nc(N)sc2c1	cytopathic effect / MTT	MT-4	LAI	-	EC50	0.005 µM
CC(C)C1=C2[C@H]3CC[C@@H]4[C@@]5(C)CC[C@H](OC(=O)[C@H]6C[C@@H](C(=O)O)C6(C)C)C(C)(C)[C@@H]5CC[C@@]4(C)[C@]3(C)CC[C@@]2([C@@H](O)CNCC2(NC(=O)c3ccc(Cl)cc3)CCCCC2)CC1=O	p24 / ELISA	MT-2	92HT599	-	EC50	<1 µM
CN(C)CN1C(=O)/C(=N\n2c(-c3ccncc3)n[nH]c2=S)c2cc(Cl)ccc21	cytopathic effect / MTT	MT-4	IIIB	-	EC50	>12 µM
NC(=NCCCCCCN=C(N)/N=C(\N)N1CCN(c2cc3c(cc2F)c(=O)c(C(=O)O)cn3C2CC2)CC1)/N=C(\N)N1CCN(c2cc3c(cc2F)c(=O)c(C(=O)O)cn3C2CC2)CC1	XTT	PBMC	IIIB	-	EC50	2.5 µg/mL
Cc1ccccc1C(=O)N[C@@H](Cc1ccccc1)[C@H](O)CN(CC(C)C)S(=O)(=O)c1ccc2nc(N)sc2c1	cytopathic effect / MTT	MT-4	LAI	-	EC50	0.004 µM
CN(C)CN1C(=O)/C(=N\n2c(-c3ccncc3)n[nH]c2=S)c2cc(Br)ccc21	cytopathic effect / MTT	MT-4	IIIB	-	EC50	>11 µM
COC(=O)[C@H](CCCN=C(N)N)NC(=O)CCNC(=O)CN(CCNC(=O)CN(CCNC(=O)OCc1ccccc1)C(=O)Cn1cnc2c(=O)[nH]c(N)nc21)C(=O)Cn1cnc2c(N)ncnc21	cytopathic effect / MTT	PBMC/IIIB + PBMC	-	-	EC50	>200 µM
COC(=O)[C@H](Cc1c[nH]c2ccccc12)NP(=O)(O)OC[C@H]1O[C@@H](n2cc(C)c(=O)[nH]c2=O)C[C@@H]1N=[N+]=[N-]	RT activity	PBMC	LAV	-	EC50	0.01 µM
CC(C)C1=C2[C@H]3CC[C@@H]4[C@@]5(C)CC[C@H](OC(=O)[C@H]6C[C@@H](C(=O)O)C6(C)C)C(C)(C)[C@@H]5CC[C@@]4(C)[C@]3(C)CC[C@@]2([C@@H](O)CN(CCN(C)C)C(=O)c2ccc(Cl)cc2)CC1=O	p24 / ELISA	MT-2	92HT599	-	EC50	<1 µM
COc1ccc([C@@H]2c3ccccc3S(=O)(=O)N2C)cc1	cytopathic effect / XTT	CEM + CEM-SS	RF	-	EC50	>200 µM
CO[C@H]([C@@H]1OC[C@@](O)(CO)[C@H]1N=[N+]=[N-])n1cc(C)c(=O)[nH]c1=O	ELISA / antigen	MT-4	IIIB	-	EC50	>300 µM
O=C(OC[C@H]1O[C@@H](OC(=O)c2cc(OS(=O)(=O)O)c(OS(=O)(=O)O)c(OS(=O)(=O)O)c2)[C@H](OC(=O)c2cc(OS(=O)(=O)O)c(OS(=O)(=O)O)c(OS(=O)(=O)O)c2)[C@@H](OC(=O)c2cc(OS(=O)(=O)O)c(OS(=O)(=O)O)c(OS(=O)(=O)O)c2)[C@@H]1OC(=O)c1cc(OS(=O)(=O)O)c(OS(=O)(=O)O)c(OS(=O)(=O)O)c1)c1cc(OS(=O)(=O)O)c(OS(=O)(=O)O)c(OS(=O)(=O)O)c1	MTT	MT-4	IIIB	5 d	EC50	0.58 µg/mL
CO[C@@H]([C@@H]1OC[C@@](O)(CO)[C@H]1N=[N+]=[N-])n1cc(C)c(=O)[nH]c1=O	ELISA / antigen	MT-4	IIIB	-	EC50	>300 µM
CC(C)C1=C2[C@H]3CC[C@@H]4[C@@]5(C)CC[C@H](OC(=O)[C@H]6C[C@@H](C(=O)O)C6(C)C)C(C)(C)[C@@H]5CC[C@@]4(C)[C@]3(C)CC[C@@]2(CC(=O)NCC(C)(C)NC(=O)c2ccc(N3CCC(O)CC3)cn2)CC1=O	p24 / ELISA	MT-2	92HT599	-	EC50	<1 µM
COc1cc(O)c2c(c1)C(=O)C(CC(C)=O)=C(C)C2=O	luciferase	SupT1	-	pseudotyped	EC50	20.4 µg/mL

A second listing of 7 rows from above:

structure | method | cells | strain | conditions | endpoint | result
O=C1/C(=N\n2c(-c3ccncc3)n[nH]c2=S)c2cc(Br)ccc2N1CN1CCOCC1 | cytopathic effect / MTT | MT-4 | IIIB | - | EC50 | >11 µM
C[C@@H]1O[C@H](CO)O[C@H]1n1cnc2c(=O)[nH]c(N)nc21 | p24 | MT-4 | - | - | EC95 | >10 µM
Nc1ccn([C@H]2CC[C@@H](CO)O2)c(=O)n1 | MTT | MT-4 | RF | - | EC50 | 0.189 µM
COc1cc(O)c2c(c1)C(=O)C(CC(C)=O)=C(C)C2=O | luciferase | SupT1 | - | pseudotyped | EC50 | 20.4 µg/mL
Nc1cc(OC[C@H]2CC[C@@H](CO)O2)nc(N)n1 | syncytia | CEM | IIIB | - | EC50 | >250 µM
Cc1c(O)cccc1C(=O)N[C@@H](Cc1ccccc1)[C@H](O)CN(CC(C)C)S(=O)(=O)c1ccc2nc(N)sc2c1 | cytopathic effect / MTT | MT-4 | LAI | - | EC50 | 0.005 µM
O=C(OC[C@H]1O[C@@H](OC(=O)c2cc(OS(=O)(=O)O)c(OS(=O)(=O)O)c(OS(=O)(=O)O)c2)[C@H](OC(=O)c2cc(OS(=O)(=O)O)c(OS(=O)(=O)O)c(OS(=O)(=O)O)c2)[C@@H](OC(=O)c2cc(OS(=O)(=O)O)c(OS(=O)(=O)O)c(OS(=O)(=O)O)c2)[C@@H]1OC(=O)c1cc(OS(=O)(=O)O)c(OS(=O)(=O)O)c(OS(=O)(=O)O)c1)c1cc(OS(=O)(=O)O)c(OS(=O)(=O)O)c(OS(=O)(=O)O)c1 | MTT | MT-4 | IIIB | 5 d | EC50 | 0.58 µg/mL